Measured values as given in patent publication US20210290651A1, “METHODS OF TREATING VIRAL INFECTIONS USING INHIBITORS OF NUCLEOTIDE SYNTHESIS PATHWAYS” (priority 2020, published 2021).

Test system: SARS-CoV-2
Test: microbe, parasite or virus in culture
Type: cell-based

## Cc1c(-c2ccc(-c3ccccc3F)cc2)nc2ccc(F)cc2c1C(=O)O [brequinar, 6-fluoro-2-(2′-fluoro-1,1′ biphenyl-4-yl)-3-methyl-4-quinoline carboxylic acid]
Severe acute respiratory syndrome coronavirus 2, Vero C1008, read-out: EC50, anti-SARS-CoV-2 activity
  EC50: ~200 nM
Severe acute respiratory syndrome coronavirus 2, Vero C1008, read-out: EC50: Concentration inhibiting 50% of the maximum CPE-protection effect of the compound (Emax)
  EC50: ~200 nM
Severe acute respiratory syndrome coronavirus 2, Vero C1008, read-out: IC50: Concentration inhibiting 50% of the virus-induced CPE compared to the no infection control
  IC50: 200 nM

Like-named read-outs stand apart in the source and are kept apart here.
